Laboratory results published in patent US20150086555A1 (THERACLONE SCIENCES, published 2015).

Legend:
[1] = target: hemagglutinin on whole influenza A virions, A/Solomon Islands/3/06 H1N1 (Influenza A virus A/Solomon …)
[2] = target: hemagglutinin on whole influenza A virions, A/Wisconsin/67/05 H3N2 (Influenza A virus …)
[3] = target: Hemagglutinin (HA) of influenza A virus A/Solomon Islands/3/06 H1N1, on whole virions (Influenza A virus A/Solomon …)
[4] = target: Hemagglutinin (HA) of influenza A virus A/Japan/305/57 H2N2, on whole virions (Influenza A virus A/Japan/305/1957 …)
[5] = target: T1, Hemagglutinin (HA) of influenza A virus A/Wisconsin/67/05 H3N2, on whole virions (Influenza A virus A/Wisconsin/67/2005 …); assay: ELISA on coated inactivated whole virions; transfection supernatant, set 5
T1 construct: whole, on cells

B1: TCN-545 (5082_I15) (antibody, V domains shown)
VH: QVQLQQWGAGLLKPSETLSLSCAVFGGSFSDYYWTWIRQPPGKGLEWIGEIKHSGRTNYNPSLESRVTISVDTSKNQFSLKLSSVTAADTAIYYCARGTDPDTEGYCRSGSCSAFDFWGQGTLVTVSS
VL: EIVLTQSPGTLSLSPGERATLSCRASHFVNYRSLAWYQQTPGQVPRLLIYGASTRATGIPDRFSGSGSGTDFTLTISRLEPEDFAVYFCQQYGGSPRYTFGQGTRLEIK
[1]
  ELISA: Virus Binding (OD450): 3.43 OD450
[2]
  ELISA: Virus Binding (OD450): 3.64 OD450

B2: TCN-543 (5081_G23) (antibody, V domains shown)
VH: QVHLVQSGAEVRKPGDSVKVSCKTSGYTFSTYPVAWVRQVPGQGLEWMGWISTYNGNTNFAQNFQGRVTLTTDTTTNTAYMEVRSLKFDDTAVYYCARVEGSYRDFWNNQNRFDPWGQGTLVTVSS
VL: SYVLTQPPSVSVAPGQTARISCGGSNIGGKSVHWYQQKPGQAPVLVVYDDSGRPSGIPERFSGSNSGDTATLTISRVEAGDEADYFCQVWDNFGGVFGTGTKVTVL
[1]
  ELISA: Virus Binding (OD450): 3.64 OD450
[2]
  ELISA: Virus Binding (OD450): 3.63 OD450

B3: TCN-540 (5060_F05) (antibody, V domains shown)
VH: QVQLVQSGGGVVQPGRSLRLSCAASGFTFSSYAMHWVRQAPGKGLEWVAIISYDGNDQYYTDSVKGRFTISRDSSKVYLQMHRLRPEDTAVYYCAKEFETSGYFHGSFDYWGQGILVTVSS
VL: QSALTQPASVSGSPGQSITISCTGTSSDVGGYNYVSWYQQHPGKAPKLLIYEVTNWPSGVSNRFSGSKSGNTASLTISGLQAEDEADYYCSSYAGSSTWVFGGGTRVTVL
[1]
  ELISA: Virus Binding (OD450): 0.07 OD450
[2]
  ELISA: Virus Binding (OD450): 3.64 OD450

B4: TCN-540 (5060_F05) (antibody, V domains shown)
VH: B3 VH
VL: B3 VL
[3]
  ELISA virus binding (OD450): 0.09 OD450
[4]
  ELISA virus binding (OD450): 3.61 OD450

B5: TCN-550 (5096_F06) (antibody, V domains shown)
VH: QVQLQESGPGLVKPSETLSLTCTVSGASINSHYWSWIRQPPGKGLEWIGYVYYSGSTTYNPSLKSRVTLSVDTSKNQFSLNLSSVTAADTAFYYCARHPYDVLTGSGDWFDPWGQGTLVTVSS
VL: SYVLTQAPSVSVAPGQTARITCGGNAIGSKKVHWYQHKAGQAPVLVVYDDTDRPSGIPERFSGSNSWSTATLTINRVEAGDEADYYCQVWDFTIDHVVFGGGTKLTVL
[1]
  ELISA: Virus Binding (OD450): 0.06 OD450
[2]
  ELISA: Virus Binding (OD450): 3.63 OD450

B6: TCN-551 (5243_D01) (antibody, V domains shown)
VH: EVQLVQSGSEVKKPGESLKISCKGSGYSFSNYWIGWVRHMPGKGLEWMGIIYPGDSDTRYSPSFQGQVTMSADKSSSTVYLQWSSLKASDTAIYYCARRGGHSFGYGSGGDTHSEFDSWGQGTLVTVSS
VL: QSVLTQSPSVSAAPGQKVTISCSGSDSNIGDYFVCWYQHLPGKPPQLLIYENNKRPSGIPDRFSGSKSGTSATLGITGIQTGDEADYYCATWDGSLSAWVFGGGTKLTVL
[1]
  ELISA: Virus Binding (OD450): 3.63 OD450
[2]
  ELISA: Virus Binding (OD450): 0.26 OD450

B7: TCN-555 (5246_L16) (antibody, V domains shown)
VH: QVQLVQSGAEVKRPGSSVKVSCTASGGIFRKNAISWVRQAPGQGLEWMGGIIAVFNTANYAQKFQNRVKITADESGNTAYMELSSLTSDDTAVYYCASHPKYFYGSGSYPDFWGQGTLVTVSS
VL: QSALTQPRSVSGSPGQSITISCTGGSSDIGASNSVSWYQQHPGKAPKLVIFDVTERPSGVPHRFSGSKSGNTASLTVSGLQPDDEADYFCCAYGGKYLVVFGGGTKVTVL
[1]
  ELISA: Virus Binding (OD450): 3.63 OD450
[2]
  ELISA: Virus Binding (OD450): 0.11 OD450

B8: TCN-544 (5082_A19) (antibody, V domains shown)
VH: QVQLQESGPGLVKPSETLSLTCTVSRGSIGHYFWSWIRQPPGKGLEWIGYISYSGSTKYNPSLRSRVTISVDTSKNQFSLNLNSVTATDTALYYCAREDYDILTGAGPGMEVWGQGTTVTVSS
VL: QSMLTQPPSASGTPGQRVTISCSGSSSNIGSNTVNWFKHLPGTAPKLLIYRNDLRPSGVPDRFSGSKSGTSASLAISGLQSEDEADYYCATWDDSLNGFYVFGTGTKVTVL
[1]
  ELISA: Virus Binding (OD450): 0.08 OD450
[2]
  ELISA: Virus Binding (OD450): 3.6 OD450

B9: TCN-544 (5082_A19) (antibody, V domains shown)
VH: B8 VH
VL: B8 VL
[5]
  ELISA virus binding (OD450): 3.65 OD450
[3]
  ELISA virus binding (OD450): 0.07 OD450
[4]
  ELISA virus binding (OD450): 0.07 OD450

B10: TCN-554 (5277_M05) (antibody, V domains shown)
VH: QVQLVQSGADLKKPGASVKVSCKASGYTFTDYYIHWVRQAPGQGLEWMGWINPESGDTKYAQKFQGRVTMTRDTSITTAYMELGRLRSDDTAVYYCARDVSTTWSWFAPWGQGTLVTVSS
VL: DIVMTQSPDSLAVSLGERATINCRSSQSIFHNSNNENYLAWYQQKPGQPPKLLIYWASTRESGVPDRFSGSGSGTDFTLTISSLQAEDVAVYFCQQYYNAPLTFGGGTKVEIK
[1]
  ELISA: Virus Binding (OD450): 0.86 OD450
[2]
  ELISA: Virus Binding (OD450): 3.57 OD450

B11: TCN-539 (5056_A08) (antibody, V domains shown)
VH: QVQLVESGGGVVQPGRSLRLSCAASEITFITYAMHWVRQAPGKGLEWVALISDDGSNKFYADSVKGRFTISRDNSKNTLYLQMNSLRAEDTAAYYCAREGVYFDSGTYRGYFDYWGQETLVTVSS
VL: EIVLTQSPATLSLSPGERATLSCRASQSVSSYLAWYQQKPGQAPRLLIYDASNRATGIPARFSGSGSGTDFTLTISSLEPEDFAVYYCQQRSHWPPITFGQGTRLEIK
[1]
  ELISA: Virus Binding (OD450): 0.07 OD450
[2]
  ELISA: Virus Binding (OD450): 0.13 OD450

B12: TCN-539 (5056_A08) (antibody, V domains shown)
VH: B11 VH
VL: B11 VL
[5]
  ELISA virus binding (OD450): 0.13 OD450
[3]
  ELISA virus binding (OD450): 0.07 OD450
[4]
  ELISA virus binding (OD450): 0.07 OD450

B13: TCN-542 (5079_A16) (antibody, V domains shown)
VH: QVQLQESGPGLVKPSQTLSLTCTVSGGSISSGNYYWNWVRQHPGKGLEWIGYIYYRGSTFYNPSLKSRVTISIDTSKNQFSLRLSSVTAADTAVYYCAKDTRSSLDNYQYGMDVWGQGTTVTVSS
VL: QTVVTQEPSLTVSPGGTVTLTCASSTGAVTSSYFPNWFQQKPGQAPRPLIYSTTIRHSWTPARFSGSLLGGKAALTLSGVQPEDEADYYCLLYSGGDPVAFGGGTKLTVL
[5]
  ELISA virus binding (OD450): 0.23 OD450
[3]
  ELISA virus binding (OD450): 3.6 OD450
[4]
  ELISA virus binding (OD450): 0.07 OD450
